Source: patent US10130714B2 (priority 2012, dated 2018)

By UniProt entry, the sequences of proteins in these tests, tags left out.
UniProt P03470, whole entry: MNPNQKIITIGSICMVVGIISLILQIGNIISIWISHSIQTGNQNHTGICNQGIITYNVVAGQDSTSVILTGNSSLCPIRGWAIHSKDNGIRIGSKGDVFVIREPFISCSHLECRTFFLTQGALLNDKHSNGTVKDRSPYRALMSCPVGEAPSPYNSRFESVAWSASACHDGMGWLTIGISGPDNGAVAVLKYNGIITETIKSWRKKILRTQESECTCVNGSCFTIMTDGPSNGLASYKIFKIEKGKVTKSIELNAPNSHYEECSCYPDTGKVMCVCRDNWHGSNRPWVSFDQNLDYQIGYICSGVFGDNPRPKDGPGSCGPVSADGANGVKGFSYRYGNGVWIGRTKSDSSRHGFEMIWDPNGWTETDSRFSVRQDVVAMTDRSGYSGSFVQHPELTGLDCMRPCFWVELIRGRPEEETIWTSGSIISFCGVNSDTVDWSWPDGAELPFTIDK

Tests used:
[1] = target: neuraminidase of influenza A/WSN/1933 (H1N1) virus (Influenza A virus, UniProt P03470); assay: Influenza neuraminidase inhibition, fluorogenic MUNANA assay; type: biochemical; conditions: read-out: IC50, neuraminidase inhibition
[2] = test system: A/WSN/1933 (H1N1) virus; assay: Cytopathic prevention assay in MDCK cells, H1N1

SMILES	IC50 [1]	potency relative to oseltamivir ([2]; protection of MDCK cells infected by A/WSN/1933, greater potency than oseltamivir)	EC50 ([2]; read-out: EC50 (nM), anti-influenza activity, A/WSN/1933 (H1N1) virus, MDCK cells, table data are ranges or single assay results)
CCC(CC)OC1C=C(P(=O)(O)OCCCOC(=O)C=Cc2ccc(O)c(O)c2)CC(N)C1NC(C)=O (stereo not shown)	0.7 µM		
CCC(CC)OC1C=C(C(=O)OCCCOC(=O)C=Cc2ccc(O)c(O)c2)CC(N)C1NC(C)=O (stereo not shown)	2.4 µM	about 6 fold	73 nM
